The values below come from ChEMBL document CHEMBL4118082 (Eur J Med Chem, 2017).

The nature of data set [1]: Therapeutic index, ratio of CC50 for human MRC5 cells to MIC90 for Mycobacterium tuberculosis H37Ra Lehmann and Neumann ATCC 25177 harboring pSMT1 luciferase reporter. For orientation: A reporter such as luciferase makes a cellular process visible.
Data set [2] deals with Mycobacterium tuberculosis variant bovis. Nature of the data set: Antimycobacterial activity against Mycobacterium bovis AN5 harboring pSMT1 carrying luxAB gene after 6 days by luminescence based serial dilution method.

Values after ≈ are worked out from the molar mass of the structure shown.

A word on the MIC90: it is the lowest concentration that inhibits either 90% of growth or 90% of the strains tested, depending on the study. As to `CC(=O)Oc1c(-c2ccccc2)c(=O)[nH]c2ccc(F)cc12`, in data set [1], the TI turned out to be 23.3. In data set [2], this compound registered an MIC90 of 4.7 µM (≈ 1.4 µg/mL).
`Oc1nc2ccccc2c(O)c1-c1ccccc1` displayed an MIC90 in data set [2] of 7.2 µM (≈ 1.71 µg/mL).
Take `O=c1[nH]c2ccc(O)cc2c(O)c1-c1ccccc1`: the TI in data set [1] worked out at 15.4. In data set [2], this compound displayed an MIC90 of 10.4 µM (≈ 2.63 µg/mL).
With `O=c1c(-c2ccccc2)c(O)c2ccccc2n1-c1ccccc1`, the TI in data set [1] is greater than 20. The same compound returned an MIC90 in data set [2] of 7.8 µM (≈ 2.44 µg/mL).
In the same order, the values of `COc1ccc2[nH]c(=O)c(-c3ccccc3)c(O)c2c1` are 8.7 and 9.3 µM (≈ 2.49 µg/mL).
On to `COc1ccc2c(O)c(-c3ccccc3)c(=O)[nH]c2c1`, for which the TI in data set [1] amounted to 6.5. Besides, in data set [2], the MIC90 is 9.5 µM (≈ 2.54 µg/mL).
With `O=c1[nH]c2ccc(F)cc2c(O)c1-c1ccccc1`, in data set [1], the TI came to 21.1. In data set [2], the MIC90 stood at 5.3 µM (≈ 1.35 µg/mL).
In the same order, the values of `Cc1c(O)c2ccccc2[nH]c1=O` are 12.5 and 9.5 µM (≈ 1.66 µg/mL).
Turning to `NNC(=O)c1ccncc1` [ISONIAZID], the MIC90 in data set [2] is less than 0.1 µM.
Regarding `O=c1[nH]c2c(O)cccc2c(O)c1-c1ccccc1`, the TI in data set [1] came to 10.1. Also, the MIC90 in data set [2] is 9.9 µM (≈ 2.51 µg/mL).
In the case of `O=c1[nH]c2ccccc2c(O)c1-c1ccccc1`, in data set [1], the TI worked out at 11.4.
Turning to `Cc1cc2[nH]c(=O)c(-c3ccccc3)c(O)c2cc1C`, the TI in data set [1] came to 6.7. Moreover, the MIC90 in data set [2] stood at 13.2 µM (≈ 3.5 µg/mL).
In the same order, the values of `O=c1[nH]c2cc(O)ccc2c(O)c1-c1ccccc1` are 11.2 and 11.5 µM (≈ 2.91 µg/mL).
In the same order, the values of `COc1cccc2c(O)c(-c3ccccc3)c(O)nc12` are 13.2 and 8.6 µM (≈ 2.3 µg/mL).
For the compound `Cc1ccc2[nH]c(=O)c(-c3ccccc3)c(O)c2c1`, in data set [1], the TI is greater than 16. Besides, the MIC90 in data set [2] is 8.7 µM (≈ 2.19 µg/mL).
